Record: PubChem BioAssay AID1259414 (Drosophila RNAi Screening Center, 2018)

Purpose: 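Fly genes that alter Wolbachia amount inside host cells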 (primary screen)
Cells: Drosophila JW18 cells infected with Wolbachia
Reagent: long dsRNA against Drosophila genes, 0.25 µg dsRNA per well of a 384-well plate
Time to read-out: 5 days
Conditions: cells persistently infected with Wolbachia before knock-down; no added drug
Measured: 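Automated imaging of bacterial rRNA staining divided by host cell count, reported as plate-normalised robust z-score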
Direction: Wolbachia per cell robust z: higher = more Wolbachia per host cell than the plate typical
Rule for the call: 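Active if absolute robust z reaches 1.5 in two or more of three replicates, leaving out multi- or no-target dsRNAs, genes unexpressed in JW18 and A1 wells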
In all, the deposit lists about 24,000 reagents; below is an unselected part of those with a known target gene and a result. Of all reagents, about 1,210 (5%) were called active. 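Inactive calls also include excluded dsRNAs with several or no targets, genes unexpressed in JW18, and well A1, regardless of score.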 Reagent sequences are not shown.

P5cr [DRSC16782] gave Wolbachia per cell robust z, rep 1 = -0.3; Wolbachia per cell robust z, rep 2 = 0.688; Wolbachia per cell robust z, rep 3 = -4.87; inactive. Silencing of ZAP3 [DRSC17852] resulted in: Wolbachia per cell robust z, rep 1 = -0.487; Wolbachia per cell robust z, rep 2 = 0.597; Wolbachia per cell robust z, rep 3 = -0.659; inactive. After knock-down of ZAP3 [DRSC17853], the screen gave Wolbachia per cell robust z, rep 1 = -1.96; Wolbachia per cell robust z, rep 2 = -2.13; Wolbachia per cell robust z, rep 3 = -0.861; active. Knock-down of ZAP3 [DRSC18249] came out at: Wolbachia per cell robust z, rep 1 = -1.26; Wolbachia per cell robust z, rep 2 = -0.291; Wolbachia per cell robust z, rep 3 = -0.327; inactive. Silencing of CG13694 [DRSC00363] resulted in: Wolbachia per cell robust z, rep 1 = 0.885; Wolbachia per cell robust z, rep 2 = -0.73; Wolbachia per cell robust z, rep 3 = 1.68; inactive. E(z) [DRSC11147] gave Wolbachia per cell robust z, rep 1 = -0.363; Wolbachia per cell robust z, rep 2 = 0.945; Wolbachia per cell robust z, rep 3 = 1.8; inactive.

Against E(z) [DRSC29388] the deposit lists Wolbachia per cell robust z, rep 1 = 0.389; Wolbachia per cell robust z, rep 2 = 0.371; Wolbachia per cell robust z, rep 3 = 0.345; inactive. Silencing of U4-U6-60K [DRSC10624] came out at: Wolbachia per cell robust z, rep 1 = -0.978; Wolbachia per cell robust z, rep 2 = -1.68; Wolbachia per cell robust z, rep 3 = -0.612; inactive. After knock-down of CG13868 [DRSC06427], the record shows Wolbachia per cell robust z, rep 1 = 1.49; Wolbachia per cell robust z, rep 2 = 1.08; Wolbachia per cell robust z, rep 3 = 0.394; inactive. For Acbp6 [DRSC10217], the entry reads Wolbachia per cell robust z, rep 1 = 0.027; Wolbachia per cell robust z, rep 2 = -3.3; Wolbachia per cell robust z, rep 3 = 1.77; inactive. With knock-down of CG13023 [DRSC09903], the record shows Wolbachia per cell robust z, rep 1 = 0.585; Wolbachia per cell robust z, rep 2 = -0.0515; Wolbachia per cell robust z, rep 3 = -0.338; inactive. Against Ripalpha [DRSC02657], the entry reads Wolbachia per cell robust z, rep 1 = 0.338; Wolbachia per cell robust z, rep 2 = -0.859; Wolbachia per cell robust z, rep 3 = -0.537; inactive.

Records above marked active, once more:
ZAP3 [DRSC17853] → Wolbachia per cell robust z, rep 1 = -1.96; Wolbachia per cell robust z, rep 2 = -2.13; Wolbachia per cell robust z, rep 3 = -0.861; outcome = active

More results:
CG6656 [DRSC16085] showed Wolbachia per cell robust z, rep 1 = 1.36; Wolbachia per cell robust z, rep 2 = -0.163; Wolbachia per cell robust z, rep 3 = 0.534; inactive. With knock-down of CG34386 [DRSC06468] the results were Wolbachia per cell robust z, rep 1 = -0.311; Wolbachia per cell robust z, rep 2 = -0.271; Wolbachia per cell robust z, rep 3 = 0.846; inactive. Against CG34386 [DRSC23234], the values are Wolbachia per cell robust z, rep 1 = 0.133; Wolbachia per cell robust z, rep 2 = 0.618; Wolbachia per cell robust z, rep 3 = -1.09; inactive. Depletion of CG34386 [DRSC29597] came out at: Wolbachia per cell robust z, rep 1 = -0.191; Wolbachia per cell robust z, rep 2 = -6.85; Wolbachia per cell robust z, rep 3 = -0.65; inactive. Against CG12620 [DRSC02177], the entry reads Wolbachia per cell robust z, rep 1 = 0.241; Wolbachia per cell robust z, rep 2 = 0.323; Wolbachia per cell robust z, rep 3 = 0.809; inactive. With knock-down of CG12620 [DRSC24601], the record shows Wolbachia per cell robust z, rep 1 = -0.323; Wolbachia per cell robust z, rep 2 = 0.0362; Wolbachia per cell robust z, rep 3 = 0.909; inactive.

l(2)k14505 [DRSC03106] gave Wolbachia per cell robust z, rep 1 = -7.6; Wolbachia per cell robust z, rep 2 = -0.612; Wolbachia per cell robust z, rep 3 = -0.327; inactive. For Ptpa [DRSC00776], the values are Wolbachia per cell robust z, rep 1 = -1.01; Wolbachia per cell robust z, rep 2 = -0.0959; Wolbachia per cell robust z, rep 3 = -0.541; inactive. Silencing of Ptpa [DRSC28747] came out at: Wolbachia per cell robust z, rep 1 = -0.14; Wolbachia per cell robust z, rep 2 = -0.00617; Wolbachia per cell robust z, rep 3 = 0.0705; inactive. Silencing of Ptpa [DRSC41559] gave: Wolbachia per cell robust z, rep 1 = -1.22; Wolbachia per cell robust z, rep 2 = 0.688; Wolbachia per cell robust z, rep 3 = -0.104; inactive. After knock-down of gig [DRSC11351], the screen gave Wolbachia per cell robust z, rep 1 = -1.87; Wolbachia per cell robust z, rep 2 = -0.149; Wolbachia per cell robust z, rep 3 = 0.229; inactive. Knock-down of gig [DRSC29781] resulted in: Wolbachia per cell robust z, rep 1 = -0.0134; Wolbachia per cell robust z, rep 2 = -0.917; Wolbachia per cell robust z, rep 3 = -2.39; inactive.

After knock-down of Npc2e [DRSC15522] the results were Wolbachia per cell robust z, rep 1 = -0.19; Wolbachia per cell robust z, rep 2 = 0.638; Wolbachia per cell robust z, rep 3 = 0.63; inactive. Npc2e [DRSC22338] gave Wolbachia per cell robust z, rep 1 = 0.56; Wolbachia per cell robust z, rep 2 = -0.188; Wolbachia per cell robust z, rep 3 = 0.444; inactive. Knock-down of CG14238 [DRSC14732] gave: Wolbachia per cell robust z, rep 1 = 0.872; Wolbachia per cell robust z, rep 2 = -1.75; Wolbachia per cell robust z, rep 3 = 0.915; inactive. Knock-down of CG14238 [DRSC29545] came out at: Wolbachia per cell robust z, rep 1 = -2.29; Wolbachia per cell robust z, rep 2 = -0.48; Wolbachia per cell robust z, rep 3 = -0.653; inactive. CG42471 [DRSC40648] scored Wolbachia per cell robust z, rep 1 = 0.626; Wolbachia per cell robust z, rep 2 = 0.666; Wolbachia per cell robust z, rep 3 = 1.15; inactive. For sut2 [DRSC07701] the deposit lists Wolbachia per cell robust z, rep 1 = -0.311; Wolbachia per cell robust z, rep 2 = 0.784; Wolbachia per cell robust z, rep 3 = 0.604; inactive.
